Here are results for nine compounds from US10786484B2, “Mono- or di-substituted indole derivatives as dengue viral replication inhibitors” (Janssen Pharmaceuticals, Inc., priority 2015, dated 2020).

The structures appear in SMILES notation.

Common to all, as to assay type: cell-based, Dengue virus
Data set [1] relates to DENV-4 strain EDEN (SG/06K2270DK1/2005). Briefly: Tetravalent RT-qPCR assay Protocol A, serotype 4 EDEN. The settings on record: RT-qPCR serotype 4 EDEN. As for the experimental part: (§1) The antiviral activity of the compounds of the invention was tested against DENV-1 strain TC974#666 (NCPV), DENV-2 strain 16681, DENV-3 strain H87 (NCPV) and DENV-4 strains H241 (NCPV) and EDEN (SG/06K2270DK1/2005; GenBank accession number QG398256) in a RT-qPCR assay. Therefore, Vero cells were infected with either DENV-1, or -2, or -3, or -4 in the presence or absence of test compounds. At day 3 post-infection, the cells were lysed and cell lysates were used to prepare cDNA of both a viral target (the 3′UTR of DENV; Table 2) and a cellular reference gene (β-actin, Table 2). Subsequently, a duplex real time PCR was performed on a Lightcycler480 instrument. The generated Cp value is inversely proportional to the amount of RNA expression of these targets. Inhibition of DENV replication by a test compound results in a shift of Cp's for the 3′UTR gene. On the other hand, if a test compound is toxic to the cells, a similar effect on β-actin expression will be observed. The comparative ΔΔCp method is used to calculate EC50, which is based on the relative gene expression of the target gene (3′UTR) normalized with the cellular housekeeping gene (β-actin). In addition, CC50 values are determined based on the Cp values acquired for the housekeeping gene β-actin.
(§2) The culture medium consisted of minimal essential medium supplemented with 2% of heat-inactivated fetal calf serum, 0.04% gentamycin (50 mg/mL) and 2 mM of L-glutamine. Vero cells, obtained from ECACC, were suspended in culture medium and 75 μL/well was added in 96-well plates (10000 cells/well), which already contain the antiviral compounds. […] In addition, each plate contains wells which are assigned as virus controls (containing cells and virus in the absence of compound) and cell controls (containing cells in the absence of virus and compound). Once the cells were added in the plates, the plates were incubated in a fully humidified incubator (37° C., 5% CO2) until the next day. Dengue viruses serotype-1, 2, 3 and 4 were diluted in order to obtain a Cp of ˜22-24 in the assay. Therefore, 25 μL of virus suspension, was added to all the wells containing test compound and to the wells assigned as virus control. In parallel, 25 μL of culture medium was added to the cell controls. Next, the plates were incubated for 3 days in a fully humidified incubator (37° C., 5% CO2). After 3 days, the supernatant was removed from the wells and the cells were washed twice with ice-cold PBS (−100 μL). The cell pellets within the 96-well plates were stored at −80° C. for at least 1 day. Next, RNA was extracted using the Cells-to-CT™ lysis kit, according to the manufacturer's guideline (Life Technologies). The cell lysates can be stored at −80° C. or immediately used in the reverse transcription step.
(§3) In preparation of the reverse transcription step, mix A (table 3A) was prepared and 7.57 μL/well was dispensed in a 96-well plate. After addition of 5 μL of the cell lysates, a five minute denaturation step at 75° C. was performed (table 3B). Afterwards, 7.43 μL of mix B was added (table 3C) and the reverse transcription step was initiated (table 3D) to generate cDNA.
(§4) Finally, a RT-qPCR mix was prepared, mix C (table 4A), and 22.02 μL/well was dispensed in 96-well LightCycler qPCR plates to which 3 μL of cDNA was added and the qPCR was performed according to the conditions in table 4B on a LightCycler 480.
(§5) Using the LightCycler software and an in-house LIMS system, dose response curves for each compound were calculated and the half maximal effective concentration (EC50) and the half maximal cytotoxic concentration (CC50) were determined (Tables 5-8).

The subject of data set [2] is DENV-4 strain H241. Briefly: Tetravalent RT-qPCR assay Protocol A, serotype 4 H241. As to conditions: RT-qPCR serotype 4 H241. As to the method: as §1, §2, §3, §4, §5
The subject of data set [3] is DENV-1 strain TC974#666. Put plainly: Tetravalent RT-qPCR assay Protocol A, serotype 1. The settings on record: RT-qPCR serotype 1 TC974#666. As for the experimental part: as §1, §2, §3, §4, §5
Data set [4] relates to DENV-2 16681 strain labeled with eGFP. Put plainly: DENV-2 antiviral assay (eGFP fluorescence read-out in Vero cells). As to conditions: SI=CC50/EC50, DENV-2 antiviral assay. As to the method: The antiviral activity of all the compounds of the invention was tested against the DENV-2 16681 strain which was labeled with enhanced green fluorescent protein (eGPF). The culture medium consists of minimal essential medium supplemented with 2% of heat-inactivated fetal calf serum, 0.04% gentamycin (50 mg/mL) and 2 mM of L-glutamine. Vero cells, obtained from ECACC, were suspended in culture medium and 25 μL was added to 384-well plates (2500 cells/well), which already contain the antiviral compounds. Typically, these plates contain a 5-fold serial dilution of 9 dilution steps of the test compound at 200 times the final concentration in 100% DMSO (200 nL). […] Finally, each plate contains wells which are assigned as virus controls (containing cells and virus in the absence of compound), cell controls (containing cells in the absence of virus and compound) and medium controls (containing medium in the absence of cells, virus and compounds). To the wells assigned as medium control, 25 μL of culture medium was added instead of Vero cells. Once the cells were added to the plates, the plates were incubated for 30 minutes at room temperature to allow the cells to distribute evenly within the wells. Next, the plates were incubated in a fully humidified incubator (37° C., 5% CO2) until the next day. Then, DENV-2 strain 16681, labeled with eGFP, was added at a multiplicity of infection (MOI) of 0.5. Therefore, 15 μL of virus suspension was added to all the wells containing test compound and to the wells assigned as virus control. In parallel, 15 μL of culture medium was added to the medium and cell controls. Next, the plates were incubated for 3 days in a fully humidified incubator (37° C., 5% CO2). At the day of the read out, the eGFP fluorescence was measured using an automated fluorescence microscope at 488 nm (blue laser). Using an in-house LIMS system, inhibition dose response curves for each compound were calculated and the half maximal effective concentration (EC50) was determined. Therefore, the percent inhibition (I) for every test concentration is calculated using the following formula: I=100*([…])/(SVC−SCC); ST, SCC and SVC are the amount of eGFP signal in the test compound, cell control and virus control wells, respectively. The EC50 represents the concentration of a compound at which the virus replication is inhibited with 50%, as measured by a 50% reduction of the eGFP fluorescent intensity compared to the virus control. The EC50 is calculated using linear interpolation (Table 1).

Data set [5] concerns DENV-3 strain H87. Put plainly: Tetravalent RT-qPCR assay Protocol A, serotype 3. The settings on record: RT-qPCR serotype 3 H87. As to the method: as §1, §2, §3, §4, §5
(Quantitative PCR measures a nucleic acid by following its amplification.)

The subject of data set [6] is DENV-2 strain 16681. Briefly: Tetravalent RT-qPCR assay Protocol A, serotype 2. As to conditions: RT-qPCR serotype 2 16681. As to the method: as §1, §2, §3, §4, §5

Regarding `COc1cc(NC(C(=O)c2c[nH]c3cc(F)ccc23)c2ccc(F)cc2OCCO)cc(S(C)(=O)=O)c1` (single isomer, unassigned) [Compound 1A, 1-(6-fluoro-1H-indol-3-yl)-2-(4-fluoro-2-(2-hydroxyethoxy)phenyl)-2-((3-methoxy-5-(methylsulfonyl)phenyl)amino)ethanone], the SI in data set [1] is 1386; in data set [2], 9.7; in data set [3], 755; in data set [4], 9210; in data set [5] it was 94; in data set [6], 5790.
Regarding `COc1cc(NC(C(=O)c2c[nH]c3cc(Cl)ccc23)c2ccc(F)cc2OCCO)cc(S(C)(=O)=O)c1` (single isomer, unassigned) [Compound 2A, 1-(6-chloro-1H-indol-3-yl)-2-(4-fluoro-2-(2-hydroxyethoxy)phenyl)-2-((3-methoxy-5-(methylsulfonyl)phenyl)amino)-ethanone], the SI is 1178 in data set [1]; 19 in data set [2]; 1960 in data set [3]; 16800 in data set [4]; 64 in data set [5]; 11100 in data set [6].
In the case of `COc1cc(NC(C(=O)c2c[nH]c3c(C)c(F)ccc23)c2ccc(F)cc2OCCO)cc(S(C)(=O)=O)c1` (single isomer, unassigned) [Compound 3A, 2-(4-fluoro-2-(2-hydroxyethoxy)phenyl)-1-(6-fluoro-7-methyl-1H-indol-3-yl)-2-((3-methoxy-5-(methylsulfonyl)phenyl)amino)ethanone], the SI in data set [1] is recorded as >1194; in data set [2] it was 15; in data set [3] it was >1180; in data set [4], 8380; in data set [5] it was >80; in data set [6], >5560.
As to `COc1cc(NC(C(=O)c2c[nH]c3cc(F)c(C)cc23)c2ccc(F)cc2OCCO)cc(S(C)(=O)=O)c1` (single isomer, unassigned) [Compound 7A, 2-(4-fluoro-2-(2-hydroxyethoxy)phenyl)-1-(6-fluoro-5-methyl-1H-indol-3-yl)-2-((3-methoxy-5-(methylsulfonyl)phenyl)amino)ethanone], the SI is given as 17 in data set [2]; >2220 in data set [3]; 6080 in data set [4]; 126 in data set [5]; 5870 in data set [6].
For the compound `COc1cc(NC(C(=O)c2c[nH]c3c(F)cc(C)cc23)c2ccc(F)cc2OCCO)cc(S(C)(=O)=O)c1` (single isomer, unassigned) [Compound 8A, 2-(4-fluoro-2-(2-hydroxyethoxy)phenyl)-1-(7-fluoro-5-methyl-1H-indol-3-yl)-2-((3-methoxy-5-(methylsulfonyl)phenyl)amino)ethanone], the SI is reported as 4.9 in data set [2]; >1410 in data set [3]; 3620 in data set [4]; >75 in data set [5]; 2160 in data set [6].
For the compound `COc1cc(NC(C(=O)c2c[nH]c3c(C)cc(Cl)cc23)c2ccc(F)cc2OCCO)cc(S(C)(=O)=O)c1` (single isomer, unassigned) [Compound 9A, 1-(5-chloro-7-methyl-1H-indol-3-yl)-2-(4-fluoro-2-(2-hydroxyethoxy)phenyl)-2-((3-methoxy-5-(methylsulfonyl)phenyl)amino)ethanone], the SI in data set [2] was >22; in data set [3], >3350; in data set [4] it was 6210; in data set [5], >206; in data set [6], >4010.
For the compound `COc1cc(NC(C(=O)c2c[nH]c3ccc(OC(F)(F)F)cc23)c2ccc(F)cc2OCCO)cc(S(C)(=O)=O)c1` (single isomer, unassigned) [Compound 10B, 2-(4-fluoro-2-(2-hydroxyethoxy)phenyl)-2-((3-methoxy-5-(methylsulfonyl)phenyl)amino)-1-(5-(trifluoromethoxy)-1H-indol-3-yl)ethanone], the SI in data set [2] is on record as 89; in data set [3] it was >21400; in data set [4], 21200; in data set [5], >1630; in data set [6], >100553.
For `COc1cc(NC(C(=O)c2c[nH]c3cc(OC)c(OC(F)(F)F)cc23)c2ccc(F)cc2OCCO)cc(S(C)(=O)=O)c1` (single isomer, unassigned) [Compound 11B, 2-(4-fluoro-2-(2-hydroxyethoxy)phenyl)-2-((3-methoxy-5-(methyl-sulfonyl)phenyl)amino)-1-(6-methoxy-5-(trifluoromethoxy)-1H-indol-3-yl)ethanone] the same measures were >102, >5380, 24900, >502 and >43200.
For `COc1cc(NC(C(=O)c2c[nH]c3c(C)cc(OC(F)(F)F)cc23)c2ccc(F)cc2OCCO)cc(S(C)(=O)=O)c1` (single isomer, unassigned) [Compound 12A, 2-(4-fluoro-2-(2-hydroxyethoxy)phenyl)-2-((3-methoxy-5-(methylsulfonyl)phenyl)amino)-1-(7-methyl-5-(trifluoromethoxy)-1H-indol-3-yl)ethanone], the SI is on record as 47 in data set [2]; >6740 in data set [3]; 22100 in data set [4]; >463 in data set [5]; >20500 in data set [6].
